A mixed list of measured activities; the numbers were collected in NIAID ChemDB.

Shared fields: whole-cell or culture tests; organism: Candida tropicalis

MIC50, MIC90 and the like: level of inhibition, or share of isolates inhibited.

{"SMILES": "CN(C/C=C/C#CC(C)(C)C)Cc1cccc2ccccc12", "strain": "17 clinical isolates", "method": "broth dilution", "measure": "MIC90", "result": ">16 µg/mL"}
{"SMILES": "O=[N+]([O-])c1cc(CSc2nnnn2Cc2ccccc2)cc([N+](=O)[O-])c1", "strain": "156", "method": "broth dilution", "setting": "48 h", "measure": "EC80", "result": ">500 µM"}
{"SMILES": "O=Cc1cc(O)ccc1O", "strain": "PYCC 3097", "method": "broth dilution / turbidity", "measure": "EC50", "result": "2.5 µM"}
{"SMILES": "CCCCCCCCCCCCCCCCCCCO", "strain": "ATCC 750", "method": "broth dilution", "measure": "MLC", "result": "200 µg/mL"}
{"SMILES": "Clc1ccc(COC(Cn2ccnc2)c2ccc(Cl)cc2Cl)cc1", "strain": "19 isolates", "measure": "MIC90", "result": "8 µg/mL"}
{"SMILES": "C[C@@H]1[C@H](O)[C@@H](C)/C=C/C=C/CC/C=C/C=C/C=C/C=C/C(O[C@H]2O[C@H](C)[C@@H](O)[C@H](N)[C@@H]2O)CC2O[C@](O)(CC(O)C(O)CCC(O)CC(O)CC(O)CC(=O)O[C@H]1C)CC(O)C2C(=O)O", "strain": "LM 759", "method": "broth dilution", "measure": "MFC100", "result": "64 µg/mL"}
{"SMILES": "O=[N+]([O-])c1cc(C[Se]c2nnnn2Cc2ccccc2)cc([N+](=O)[O-])c1", "strain": "156", "method": "broth dilution", "setting": "24 h", "measure": "EC80", "result": ">500 µM"}
{"SMILES": "C[C@H]1[C@H](O)[C@@H](C)/C=C/C=C/C=C/C=C/C=C/C=C/C=C/[C@H](O[C@@H]2O[C@H](C)[C@@H](O)[C@H](N)[C@@H]2O)C[C@@H]2O[C@](O)(C[C@@H](O)C[C@@H](O)CC[C@H](O)[C@@H](O)C[C@@H](O)CC(=O)O[C@H]1C)C[C@H](O)[C@H]2C(=O)O", "strain": "54 isolates", "measure": "MIC50", "result": "1 µg/mL"}
{"SMILES": "COC(=O)c1cc(O)c(O)c(O)c1", "strain": "ATCC 750", "method": "broth dilution", "measure": "MLC", "result": ">200 µg/mL"}
{"SMILES": "Oc1cc(O)c2c(c1)OC(c1ccc(O)c(O)c1)[C@@H](O)C2", "strain": "Clinical isolate 5", "method": "broth dilution", "measure": "MIC50", "result": ">128 µg/mL"}
{"SMILES": "CC(=O)N1CCN(c2ccc(OC[C@H]3CO[C@](Cn4ccnc4)(c4ccc(Cl)cc4Cl)O3)cc2)CC1", "strain": "19 isolates", "measure": "MIC50", "result": "1 µg/mL"}
{"SMILES": "CC(=O)N1CCN(c2ccc(OC[C@H]3CO[C@](Cn4ccnc4)(c4ccc(Cl)cc4Cl)O3)cc2)CC1", "strain": "17 clinical isolates", "method": "broth dilution", "measure": "MIC50", "result": "≤0.031 µg/mL"}
{"SMILES": "O=c1c(O)c(-c2ccc(O)c(O)c2)oc2cc(O)cc(O)c12", "strain": "ATCC 750", "method": "broth dilution", "measure": "MLC", "result": "200 µg/mL"}
{"SMILES": "O=C(O)c1ccccc1O", "strain": "PYCC 3097", "method": "broth dilution / turbidity", "measure": "EC50", "result": "0.45 µM"}
{"SMILES": "CC1(C)C=C2C3CCC4[C@@]5(C)CCC(=O)C(C)(C)C5CC[C@@]4(C)[C@]3(C)CC[C@@]2(C(=O)O)CC1", "strain": "ATCC 750", "method": "broth dilution", "measure": "MLC", "result": ">200 µg/mL"}
{"SMILES": "Nc1[nH]c(=O)ncc1F", "strain": "19 isolates", "measure": "MIC90", "result": "0.12 µg/mL"}
{"SMILES": "C[C@H](Cc1ccc(O)c(O)c1)[C@@H](C)Cc1ccc(O)c(O)c1", "strain": "CCC 131-1997", "method": "broth dilution", "measure": "MIC100", "result": "62.5 µg/mL"}
{"SMILES": "O=[N+]([O-])c1ccc(C[Se]c2nnnn2C2CCCCC2)c([N+](=O)[O-])c1", "strain": "156", "method": "broth dilution", "setting": "48 h", "measure": "EC80", "result": ">500 µM"}
{"SMILES": "Nc1nc(=O)n([C@H]2CS[C@@H](CO)O2)cc1F", "strain": "54 isolates", "measure": "MIC90", "result": "1 µg/mL"}
{"SMILES": "C=C(c1ccccc1OCc1cccc(Cl)c1)n1ccnc1", "strain": "19 isolates", "measure": "MIC50", "result": "8 µg/mL"}

For reference, 2 entries again:

SMILES,strain,method,setting,measure,result
CC(=O)N1CCN(c2ccc(OC[C@H]3CO[C@](Cn4ccnc4)(c4ccc(Cl)cc4Cl)O3)cc2)CC1,19 isolates,,,MIC50,1 µg/mL
O=[N+]([O-])c1cc(C[Se]c2nnnn2Cc2ccccc2)cc([N+](=O)[O-])c1,156,broth dilution,24 h,EC80,>500 µM

Lines come from different laboratories, so protocols vary. Blank or dashed fields: not listed here. ECn: concentration that inhibits the pathogen or its effect by n%.